Compound potency records, mixed from different reports. Data source: NIAID ChemDB in PubChem.

Common to all: growth or infection tests; species: Human cytomegalovirus; measure: EC50

Rows are shuffled and stem from different studies. ECn is the concentration giving n% inhibition of infection, replication or growth. Two numbers with a dash give a range or band. Blank or dashed fields: not listed here.

structure,strain,cell line,result
NC(=O)c1cn([C@H]2C[C@H](O)[C@@H](CO)O2)c2ncnc(N)c12,TOWNE,HFF,0.9 µM
CCCCCCCCCCCCCCCCSC[C@H](O)COP(=O)(O)C(=O)O,,MRC-5,1.1 µM
CC1(Cn2cnc3c(N)ncnc32)CC1CO,,,72.06 µg/mL
CO[C@@H]1[C@H](OP(O)(=S)OC[C@H]2O[C@@H](n3cnc4c(N)ncnc43)C[C@@H]2O)[C@@H](CO)O[C@H]1n1ccc(=O)[nH]c1=O,AD169,,>20 µM
Nc1ncc2ncn(CO[C@@H]3CCP(=O)(O)OC3)c2n1,AD169,,6.7 µg/mL
Nc1nccc2c1ncn2[C@H]1C[C@H](O)[C@@H](COP(=O)(O)COC(=O)[C@@H](N)CC(=O)O)O1,DAVIS,HEL,>100 µM
O=c1[nH]cnc2c1ncn2[C@H]1CC[C@@H](CO)O1,,NHDF,>100 µM
Nc1ncnc2c1ncn2CCOCP(=O)(O)O,,,37 µM
CC(C)(C)C(=O)OCOC(=O)CN(CC(=O)OCOC(=O)C(C)(C)C)P(=O)(OC[C@H]1O[C@@H](n2cnc3c(Cl)nccc32)C[C@@H]1O)Oc1ccccc1,DAVIS,HEL,>100 µM
Nc1ncnc2c1ncn2[C@@H]1C[C@@H](O)[C@H](CO)O1,,HFF,>100 µM
Nc1ccn([C@H]2CC[C@@H](CO)O2)c(=O)n1,,NHDF,>100 µM
COc1nc2c(cc1CCCO)c(=O)c(C(=O)NCc1ccc(Cl)cc1)cn2C,,,0.46 µM
Nc1ncnc2c1ncn2C[C@@H](CO)OCP(=O)(O)O,,,1.4 µM
Cc1nc2[nH]cc(C(=O)NCc3ccc(Cl)cc3)c(=O)c2cc1C#CCO,,,2.1 µM
OC[C@H]1O[C@@H](n2cnc3cc(Cl)c(Cl)cc32)[C@H](O)[C@@H]1O,,,42 µM
Cc1cccc(C)c1Cn1c(=O)ccn(CC#N)c1=O,AD169,,>186 µM
Nc1ccn([C@@H]2C[C@@H](O)[C@H](CO)O2)c(=O)n1,,HFF,>100 µM
NC(=O)c1cn([C@@H]2O[C@H](CO)[C@@H](O)[C@@H]2O)c2ncnc(N)c12,TOWNE,HFF,3.6 µM
Nc1ncnc2c1ccn2[C@H]1C[C@H](O)[C@@H](COP(=O)(O)COC(=O)[C@@H](N)CC(=O)O)O1,DAVIS,HEL,>100 µM
O=C(Nc1cccc([N+](=O)[O-])c1)c1cc(Cl)c2ccccc2c1O,,U373,0.1 µM
O=c1[nH]c(=O)n([C@H]2C[C@H](O)[C@@H](CO)O2)cc1/C=C/Br,,,>100 µM
Cc1cn([C@@H]2C[C@@H](O)[C@H](CO)O2)c(=O)[nH]c1=O,,HFF,>100 µM
C[C@H](Cn1cnc2c(NC3CC3)ncnc21)OCP(=O)(O)O,AD169,,0.2 µg/mL
CCCCCCCCCCCCCCCCOC[C@@H](O)COP(=O)(O)C(=O)O,,MRC-5,0.63 µM
Cc1ccc(Cn2c(=O)ccn(CC#N)c2=O)c(C)c1,AD169,,74 µM
CCCNC(=O)c1cn([C@@H]2O[C@H](COP(=O)(O)O)[C@@H](O)[C@H]2O)c(=O)nc1N,,HFF,0.03 µg/mL
Nc1ccn(C[C@@H](CO)OCP(=O)(O)O)c(=O)n1,,,0.03 µM
O=c1ccn(Cc2c(F)cccc2F)c(=O)[nH]1,AD169,,>210 µM
C[C@H](N)C(=O)OCP(=O)(OC[C@H]1O[C@@H](n2cnc3c(N)ccnc32)C[C@@H]1O)Oc1ccccc1,DAVIS,HEL,>100 µM
Cc1ccc(S(=O)(=O)NC(N)=NCCC[C@H](NC(=O)OCc2cc(C)ccc2C)C(=O)N[C@H](C(=O)NC(Cc2ccccc2)C2NC(C(=O)O)CCS2)C(C)C)cc1,,,0.012 µM
Nc1ncnc2c1ncn2[C@@H]1C[C@@H](O)[C@H](CO)O1,,HFF,>100 µM
Nc1nc(N)c2ncn(CCOCP(=O)(O)O)c2n1,,,55 µM
O=C(NCc1ccc(Cl)cc1)c1n[nH]c2ccccc2c1=O,,,2.7 µM
CC(C)Oc1ccccc1CNC(=O)c1nc2ccncc2s1,,,0.1–10 µg/mL
O=C(O)P(=O)(O)O,,MRC-5,39.7 µM
CC1(Cn2cnc3c(=O)[nH]c(N)nc32)CC1CO,,,>100 µg/mL
O=c1[nH]c(=O)n(C2CC(O)C(CO)O2)cc1/C=C/Br,DAVIS,HEL,>100 µM
O=C1Cn2cc(C(=O)NCc3ccc(Cl)cc3)c(=O)c3cc(CN4CCOCC4)cc(c32)N1,,,0.14 µM
CCCCCCCCCCCCCCCCCCOC[C@@H](O)COP(=O)(O)C(=O)O,,MRC-5,0.7 µM
Nc1ccn(C[C@H]2COP(=O)(O)CO2)c(=O)n1,,,0.11 µM
COC(=O)CN(CC(=O)OC)P(=O)(OC[C@H]1O[C@@H](n2cnc3c(N)ccnc32)C[C@@H]1O)Oc1ccccc1,DAVIS,HEL,>100 µM
Nc1ccn([C@@H]2C=C[C@H](P(=O)(O)O)O[C@@H]2CO)c(=O)n1,,,10–300 µM
Nc1nc2c(ncn2COC(CO)CO)c(=O)[nH]1,,,8 µM
Cc1cc(C)cc(Cn2c(=S)ccn(Cc3c(F)cccc3F)c2=O)c1,AD169,,>13 µM
O[C@@H]1C(n2c(Cl)nc3cc(Cl)c(Cl)cc32)OC[C@@H]1O,,,4.9 µM

5 of the rows above, restated:

structure	strain	cell line	result
C[C@H](Cn1cnc2c(NC3CC3)ncnc21)OCP(=O)(O)O	AD169		0.2 µg/mL
Nc1nc2c(ncn2COC(CO)CO)c(=O)[nH]1			8 µM
CCCCCCCCCCCCCCCCSC[C@H](O)COP(=O)(O)C(=O)O		MRC-5	1.1 µM
Nc1ncnc2c1ncn2[C@@H]1C[C@@H](O)[C@H](CO)O1		HFF	>100 µM
Nc1ccn([C@H]2CC[C@@H](CO)O2)c(=O)n1		NHDF	>100 µM